Experimental findings from PubChem BioAssay AID1053136 (The Scripps Research Institute Molecular Screening Center, 2014) are described below.

The list shows a part of the results, in another mix than the full data. Calls of active or inactive are those of the source. Cut-off read from the data, not from the text of the source: active = inhibition above about 14%; inactive = the rest.

This assay has as its system HIV-1 integrase / human LEDGF/p75 complex. Put plainly: blockers of LEDGF/p75-dependent integrase activity – biochemical, TR-FRET, confirmation (AID 1053136). The following applies: TR-FRET LEDGF/p75-dependent HIV-1 integration, at 3.7 µM, active compounds read high. In general terms: Time-resolved FRET reads energy transfer from a long-lived donor to a nearby acceptor.
Broadly, the inhibition is the change of the read-out against control, counted positive when it falls. On to `CCOC(=O)c1ccc(NP(C)(=O)Oc2ccc(Cl)cc2)cc1` (stereo unspecified), for which the inhibition is inactive: -0.49%.
